{
  "source": "patent US7642277B2",
  "about": "“Non-nucleoside reverse transcriptase inhibitors” (Boehringer Ingelheim International GmbH, priority 2002, dated 2010)",
  "key": {"[1]": {"target": "HIV-1 RT enzyme (wild type) (Human immunodeficiency virus type 1 group M subtype B, UniProt P04585)", "assay": "Reverse transcriptase (RT) enzymatic assay (IC50), PicoGreen fluorescence, wild type", "type": "biochemical", "conditions": "read-out: IC50 WT"}, "HIV-1 (wild type)": {"test_system": "HIV-1 (wild type)", "assay": "P24 cellular assay (EC50), data identified with * in Table 9, wild type", "type": "cell-based", "conditions": "read-out: EC50 WT"}, "[2]": {"test_system": "HIV-1 resistant mutant K103N/Y181C", "assay": "P24 cellular assay (EC50), data identified with * in Table 9, resistant mutant", "type": "cell-based", "conditions": "read-out: EC50 K103N/Y181C"}, "[3]": {"target": "HIV-1 RT resistant mutant K103N/Y181C (Human immunodeficiency virus type 1 group M subtype B, UniProt P04585, K690N/Y768C)", "assay": "Reverse transcriptase (RT) enzymatic assay (IC50), PicoGreen fluorescence, resistant mutant", "type": "biochemical", "conditions": "read-out: IC50 K103N/Y181C"}},
  "note": "The match of structure and compound is tentative.",
  "data": [
    {"smiles": "COc1ccc(-n2nnnc2SCC(=O)Nc2ccccc2[N+](=O)[O-])cc1", "values": [
      {"measurement": "IC50", "setting": "[1]", "value": "> 100", "unit": "nM"}
    ]},
    {"smiles": "Cc1cc(C)c(-n2nnnc2SCC(=O)c2cc3ccccc3o2)c(C)c1", "values": [
      {"measurement": "IC50", "setting": "[1]", "value": "> 100", "unit": "nM"}
    ]},
    {"smiles": "O=C(CSc1nnnn1-c1cccc2ccccc12)Nc1cccc(Cl)c1Cl", "values": [
      {"measurement": "IC50", "setting": "[1]", "value": "50 to 100", "unit": "nM"},
      {"measurement": "EC50", "setting": "HIV-1 (wild type)", "value": "< 50", "unit": "nM"},
      {"measurement": "EC50", "setting": "[2]", "value": "> 100", "unit": "nM"}
    ]},
    {"smiles": "Cc1cc(S(N)(=O)=O)ccc1NC(=O)CSc1nnnn1-c1cc(C(F)(F)F)cc(C)c1Cl", "values": [
      {"measurement": "IC50", "setting": "[1]", "value": "50 to 100", "unit": "nM"},
      {"measurement": "IC50", "setting": "[3]", "value": "> 100", "unit": "nM"}
    ]},
    {"smiles": "O=C(CSc1nnnn1-c1c(Cl)cccc1Cl)Nc1ccccc1[N+](=O)[O-]", "values": [
      {"measurement": "IC50", "setting": "[1]", "value": "< 50", "unit": "nM"},
      {"measurement": "IC50", "setting": "[3]", "value": "> 100", "unit": "nM"}
    ]},
    {"smiles": "O=C(CCc1occc1-c1cccc2ccccc12)Nc1ccccc1[N+](=O)[O-]", "values": [
      {"measurement": "IC50", "setting": "[1]", "value": "> 100", "unit": "nM"}
    ]},
    {"smiles": "Cc1cc(C)c(-n2nnnc2SCC(=O)c2cccs2)c(C)c1", "values": [
      {"measurement": "IC50", "setting": "[1]", "value": "> 100", "unit": "nM"}
    ]},
    {"smiles": "CS(=O)(=O)c1ccccc1NC(=O)CSc1nnnn1-c1cccc2ccccc12", "values": [
      {"measurement": "IC50", "setting": "[1]", "value": "> 100", "unit": "nM"}
    ]}
  ]
}
